Anti-infective test results gathered from many reports (values: NIAID ChemDB through PubChem).

All rows: tests in culture; species: Candida albicans; endpoint: MIC

Conditions beyond the fields shown may differ between rows.

Clc1ccc(C(Cn2ccnc2)OCc2ccc(-c3ccccc3)cc2)cc1 ; strain or isolate: PR1 ; result: >128 µg/mL
Cc1cc(=O)c2cc(-c3nc4ccc(C(N)=NC(C)C)cc4[nH]3)ccc2o1 ; strain or isolate: ATCC 10231 ; result: 25 µg/mL
COc1ccc2c(c1)CCN1C(NCCCCCC=C(C)C)NCCC21 ; strain or isolate: NFI2103 ; result: 64 µg/mL
CC(C)(C)c1ccc(COC(Cn2ccnc2)c2ccccc2)cc1 ; strain or isolate: CA12 ; result: 128 µg/mL
CC(C)CCCCCCNC1NCCC2c3ccccc3CCN12 ; strain or isolate: NFI0124 ; result: 8 µg/mL
O=c1c2sc(=S)n(-c3ccccc3)c2[nH]c(=S)n1-c1ccccc1 ; strain or isolate: DSM 70443 ; result: 80 µg/mL
COc1nnc2c(cnc3ccccc32)n1 ; strain or isolate: VM-71 ; result: 40 µg/mL
CCCCCC1C=C(c2ccc(Cl)c(Cl)c2)C(=O)O1 ; strain or isolate: ATCC 44859 ; result: 125 µM
Cc1ccccc1-n1c(=S)[nH]c2c(sc(=S)n2-c2ccccc2)c1=O ; strain or isolate: DSM 70443 ; result: 70 µg/mL
Cc1ccc(C(Cn2ccnc2)OCc2ccc(-c3ccccc3)cc2)cc1 ; strain or isolate: 3M ; result: 64 µg/mL
Clc1ccc(CC(Cc2ccc(-c3ccccc3)cc2)n2ccnc2)cc1 ; result: 19.2 µM
NC(=NCc1ccccc1)c1ccc2nc(-c3ccc4oc(-c5ccccc5)cc(=O)c4c3)[nH]c2c1 ; strain or isolate: ATCC 10231 ; result: 6.25 µg/mL
OC(Cn1cncn1)(Cn1cncn1)c1ccc(F)cc1F ; strain or isolate: 76 strains ; result: 40 µg/mL
CC1=C(Nc2cccc(Br)c2)C(=O)c2sc(C)nc2C1=O ; strain or isolate: ATCC20231 ; result: >100 µg/mL
C[C@@H](n1cnc2cc(Cl)ccc2c1=O)[C@](O)(Cn1cncn1)c1ccccc1F ; strain or isolate: 60 strains ; result: ≤0.03 µg/mL
Nc1nnc2c(cnc3ccccc32)n1 ; strain or isolate: VM-71 ; result: 30 µg/mL
Fc1ccc(CC(Cc2ccc(-c3ccccc3)cc2)n2ccnc2)cc1 ; result: 5.5 µM
Cc1ccc(C(=O)c2cc(C)ccc2OCc2n[nH]c(=S)o2)cc1 ; result: 12 µM
COC(=O)c1ccc2c(c1)nc(-c1ccc(OCc3ccccc3)cc1)n2Cc1ccccc1 ; result: >100 µg/mL
Cc1cc(C)c2ncn([C@H](C)[C@](O)(Cn3cncn3)c3ccc(F)cc3F)c(=O)c2c1 ; strain or isolate: 60 strains ; result: ≤0.15 µg/mL
Oc1ccc(/C=C/c2cc(O)cc(O)c2)cc1 ; result: 20 µg/mL
Cc1ccc(Cc2n[nH]c(=O)n2N2C(=O)c3ccccc3C2=O)cc1 ; strain or isolate: ATCC16231 ; result: >250 µg/mL
CCC1C=C(c2cccnc2)C(=O)O1 ; strain or isolate: ATCC 44859 ; result: 62.5 µM
CC1CCN(C(=O)c2ccc3nc(-c4cccs4)[nH]c3c2)CC1 ; result: 50 µg/mL
c1ccc(-c2ccc(COC(Cn3ccnc3)c3ccccc3)cc2)cc1 ; strain or isolate: 5M ; result: 128 µg/mL
CCn1nc(-c2ccccc2)n(NC)c1=O ; strain or isolate: ATCC16231 ; result: >250 µg/mL
O=C(NCc1ccccn1)c1ccc2nc(-c3ccccc3Cl)[nH]c2c1 ; result: 50 µg/mL
CCSc1nc2c(sc(=S)n2-c2ccccc2C)c(=O)n1-c1ccccc1 ; strain or isolate: DSM 70443 ; result: 160 µg/mL
Cc1ccc(OCc2n[nH]c(=S)o2)c(C(=O)c2cccc(Cl)c2)c1 ; result: 7 µM
Cc1cccc(-n2c(=S)sc3c(=O)n(-c4ccccc4)c(=S)[nH]c32)c1 ; strain or isolate: DSM 70443 ; result: 90 µg/mL
N=C(N)c1ccc2nc(-c3ccc4oc(-c5ccccc5)cc(=O)c4c3)[nH]c2c1 ; strain or isolate: ATCC 10231 ; result: 12.5 µg/mL
C[C@H](n1cnc2cc(Cl)ccc2c1=O)[C@](O)(Cn1cncn1)c1ccc(F)cc1F ; strain or isolate: 76 strains ; result: 5 µg/mL
CCc1n[nH]c(=O)n1CC ; strain or isolate: ATCC16231 ; result: >250 µg/mL
Cc1ccc(CC(Cc2ccc(-c3ccccc3)cc2)n2ccnc2)cc1 ; result: 19 µM
C(=C\c1ccccc1)/COC(Cn1ccnc1)c1ccccc1 ; strain or isolate: CDCB385 ; result: 128 µg/mL
CC1OC(OC2CCC(c3ccc4c(c3O)C(=O)C3=C(C4=O)[C@@]4(O)C(=O)C[C@](C)(OC5C=CC(=O)C(C)O5)C[C@@]4(O)C=C3)OC2C)C=CC1=O ; strain or isolate: 6 strains ; result: ≥43 µg/mL
C[C@@H](c1ncncc1F)[C@](O)(Cn1cncn1)c1ccc(F)cc1F ; strain or isolate: Isolate 98-17 ; result: 0.12 µg/mL
Cc1nc2c(s1)C(=O)C(Sc1cccc(F)c1)=C(O)C2=O ; strain or isolate: ATCC20231 ; result: >100 µg/mL
CCCCCC1C=C(c2cccc(Cl)c2)C(=O)O1 ; strain or isolate: ATCC 44859 ; result: >125 µM
CNn1c(C)n[nH]c1=O ; strain or isolate: ATCC16231 ; result: >250 µg/mL
CCOC(=O)c1nc2cc(C(F)(F)F)ccc2nc1Nc1cc(OC)c(OC)c(OC)c1 ; result: 500 µg/mL
c1ccc(C(Cn2ccnc2)OCc2cccc3ccccc23)cc1 ; strain or isolate: PR1 ; result: 128 µg/mL
C[C@H]1[C@H](O)[C@@H](C)/C=C/C=C/C=C/C=C/C=C/C=C/C=C/[C@H](O[C@@H]2O[C@H](C)[C@@H](O)[C@H](N)[C@@H]2O)C[C@@H]2O[C@](O)(C[C@@H](O)C[C@@H](O)CC[C@H](O)[C@@H](O)C[C@@H](O)CC(=O)O[C@H]1C)C[C@H](O)[C@H]2C(=O)O ; strain or isolate: 10231 ; method: broth dilution ; result: 0.03 µg/mL
CC1=CC(=O)c2sc(C)nc2C1=O ; strain or isolate: ATCC20231 ; result: >100 µg/mL
CCCCCCCCNC1NCCC2c3ccccc3CCN12 ; strain or isolate: NFI0124 ; result: 16 µg/mL
Cc1ccc(OCc2nnc3n2N=C(c2ccccc2)CS3)c(C(=O)c2cccc(Cl)c2)c1 ; result: 3 µM
COc1ccc(C2=CC(C)OC2=O)cc1 ; strain or isolate: ATCC 44859 ; result: >125 µM
COC(=O)c1ccc2nc(-c3ccc(Cl)cc3)[nH]c2c1 ; result: 100 µg/mL
CC(C)(C)c1ccc(CC(Cc2ccc(-c3ccccc3)cc2)n2ccnc2)cc1 ; result: 66.5 µM
CC(C)N=C(N)c1ccc2nc(-c3ccc(-c4cc(=O)c5ccccc5o4)cc3)[nH]c2c1 ; strain or isolate: ATCC 10231 ; result: 6.25 µg/mL
CC(=O)N1CCN(c2ccc(OC[C@H]3CO[C@](Cn4ccnc4)(c4ccc(Cl)cc4Cl)O3)cc2)CC1 ; strain or isolate: 2005E ; result: <0.001 µg/mL
Cc1ccc(SC2=C(O)C(=O)c3nc(C)sc3C2=O)cc1 ; strain or isolate: ATCC20231 ; result: >100 µg/mL
O=c1[nH]nc(Cc2ccccc2)n1CCCl ; strain or isolate: ATCC16231 ; result: >250 µg/mL
Clc1ccc(CC(Cc2ccc(-c3ccccc3)cc2)n2ccnc2)c(Cl)c1 ; result: 8 µM
COc1ccc(C(=O)c2cc(C)ccc2OCc2nnc3n2N=C(c2ccccc2)CS3)cc1 ; result: 8 µM
CC1=C(Nc2ccc(Br)cc2)C(=O)c2sc(C)nc2C1=O ; strain or isolate: ATCC20231 ; result: 50 µg/mL
COC(=O)c1c(C)oc2cc(C(=O)C(Br)Br)c(O)c(Br)c12 ; strain or isolate: ATCC 90028 ; result: 100 µg/mL
C[C@H]1[C@H](O)[C@@H](C)/C=C/C=C/C=C/C=C/C=C/C=C/C=C/[C@H](O[C@@H]2O[C@H](C)[C@@H](O)[C@H](N)[C@@H]2O)C[C@@H]2O[C@](O)(C[C@@H](O)C[C@@H](O)CC[C@H](O)[C@@H](O)C[C@@H](O)CC(=O)O[C@H]1C)C[C@H](O)[C@H]2C(=O)O ; strain or isolate: 2402E ; result: 0.004 µg/mL
C[C@H]([C@](O)(Cn1cncn1)c1ccc(F)cc1F)S(C)(=O)=O ; strain or isolate: 60 strains ; result: 0.63 µg/mL
Cc1ccc(C)n1-n1c(Cc2ccccc2)n[nH]c1=O ; strain or isolate: ATCC16231 ; result: >250 µg/mL
[N-]=[N+]=Nc1nc2c(sc(=S)n2-c2ccccc2)c(=O)n1-c1ccccc1 ; strain or isolate: DSM 70443 ; result: 40 µg/mL
Cc1ccc(C(Cn2ccnc2)OCc2cccc3ccccc23)cc1 ; strain or isolate: PR1 ; result: >128 µg/mL
CC(C)(O)c1cn(-c2ccc(Cl)cc2)nn1 ; strain or isolate: URM 4125 ; method: broth dilution ; result: 256 µg/mL
N=C(N)c1ccc2nc(-c3ccc(-c4cc(=O)c5cc(-c6nc7ccc(C(=N)N)cc7[nH]6)ccc5o4)cc3)[nH]c2c1 ; strain or isolate: ATCC 10231 ; result: >50 µg/mL
O=C(c1ccccc1)c1cc(Cl)ccc1OCc1nnc2n1N=C(c1ccccc1)CS2 ; result: 3 µM
Cc1cccc2c(=O)n([C@H](C)[C@](O)(Cn3cncn3)c3ccc(F)cc3F)cnc12 ; strain or isolate: 406 strains ; result: 0.07 µg/mL
COc1ccc2c(c1)CCN1C(NCCCCCCC(C)C)NCCC21 ; strain or isolate: NFI0124 ; result: 16 µg/mL
CC(C)N=C(N)c1ccc2nc(-c3ccc4oc(-c5ccccc5)cc(=O)c4c3)[nH]c2c1 ; strain or isolate: ATCC 10231 ; result: 12.5 µg/mL
C=CC(C)(/C=C\c1ccc(O)cc1)c1ccc(O)cc1 ; strain or isolate: ATCC 10231 ; result: 50 µg/mL
CN[C@@H]1[C@H](O[C@@H]2O[C@H](CO)[C@@H](O)[C@H](S(=O)(=O)O)[C@H]2O)[C@@H](O)[C@H](O[C@H]2c3cc(C)c(C(=O)N[C@H](C)C(=O)O)c(O)c3-c3c(cc4c(c3O)C(=O)c3cc(OC)cc(O)c3C4=O)[C@@H]2O)O[C@@H]1C ; strain or isolate: ATCC 32354 ; result: 6.3 µg/mL